Results of unrelated studies side by side (data: NIAID ChemDB).

Shared fields: tests in culture; species: Mycobacterium smegmatis

Blank or dashed fields: not listed here. A number after MIC or MFC names an inhibition level or a share of isolates. ECn: concentration that inhibits the pathogen or its effect by n%. Neighbouring rows are from separate reports.

| structure | method | strain or isolate | measure | result |
|---|---|---|---|---|
| CC(C)C(CO)NCCNC(CO)C(C)C.Cl.Cl |  | ATCC 607 | MIC | 250 µg/mL |
| C=C[C@]1(C)C=C2C(=O)c3c(NC=O)cccc3C(C)(C)[C@H]2C[C@H]1O |  |  | MIC | >100 µM |
| N#CC(C#N)=NNc1cccc(Cl)c1 |  | MC^2 552 (ciprofloxacin-resistant) | MIC | 30 µg/mL |
| O=c1c(-c2ccc(C(F)(F)F)cc2)c(/C=C/c2cn(-c3ccccc3)nc2-c2ccccc2Br)nc2sccn12 | colony count | mc2155 | MIC | 72 µg/mL |
| C[C@H]1COC2(CCN(c3nc(=O)c4cc(C(F)(F)F)cc([N+](=O)[O-])c4s3)CC2)O1 | broth dilution / turbidity | mc2155 | MIC | 0.002 µg/mL |
| CCCCCCn1c(C)c(CN2CCOCC2)c(CN2CCOCC2)c1-c1ccc(Cl)cc1 |  | 103599 | MIC | >64 µg/mL |
| Cc1c(N2CC3CCC(N)C3C2)c(F)cn2c(=O)c(C(=O)O)cc(C3CC3)c12.Cl |  | ATCC114 | MIC | 0.02 µg/mL |
| O=C(/C=C/c1ccc(Br)cc1)c1cnccn1 | absorbance | CCM | MIC | 62.5 µg/mL |
| CC(C)C[C@H](NC(=O)[C@H](Cc1ccccc1)NC(=O)c1cnccn1)B(O)O | turbidity |  | MIC50 | 4 µM |
| CN[C@@H]1[C@H](O[C@H]2[C@H](O[C@H]3[C@H](O)[C@@H](O)[C@H](N=C(N)N)[C@@H](O)[C@@H]3N=C(N)N)O[C@@H](C)[C@]2(O)C=O)O[C@@H](CO)[C@H](O)[C@H]1O | resazurin |  | MIC | 0.9 µM |
| CCCCCCn1c(C)ccc1-c1ccc(Cl)cc1 |  | 103599 | MIC | >16 µg/mL |
| Cc1c(N2C=NCC2)c(F)cn2c(=O)c(C(=O)O)cc(C3CC3)c12.Cl |  | ATCC114 | MIC | 25 µg/mL |
| N#Cc1ccc(-c2c(/C=C/c3cn(-c4ccccc4)nc3-c3ccccc3Br)nc3sccn3c2=O)cc1 | colony count | mc2155 | MIC | 55 µg/mL |
| NC(N)=N[C@H](C(=O)O)c1cc(O)c(CO)c(O)c1 | visual reading | mc2155 | MIC | >500 µg/mL |
| CC1CN(C(=O)CCCCCCCCCCCCCCCCCNCC(=O)N2CC(C)OP(O)(=S)OC(C)C2)CC(C)OP(O)(=S)O1 |  |  | MIC | 23.4 µM |
| CCCCCCn1c(C)cc(CN2CCOCC2)c1C |  | 103599 | MIC | >64 µg/mL |
| NCC[C@H](O)C(=O)N[C@@H]1C[C@H](N)[C@@H](O[C@H]2O[C@H](CN)[C@@H](O)[C@H](O)[C@H]2O)[C@H](O)[C@H]1O[C@H]1O[C@H](CO)[C@@H](O)[C@H](N)[C@H]1O |  | A9826 | MIC | 0.25 µg/mL |
| CCCCCc1cnc(C(=O)/C=C/c2ccc(Br)cc2)cn1 | absorbance | CCM | MIC | >250 µg/mL |
| CCC(CO)NCCCNC(CC)CO |  | ATCC 607 | MIC | 60 µg/mL |
| CC(=O)O.Cc1c(N2CCCNCC2)c(F)cn2c(=O)c(C(=O)O)cc(C3CC3)c12 |  | ATCC114 | MIC | 3.1 µg/mL |
| CCCCc1cnc(C(=O)/C=C/c2ccc(Br)cc2)cn1 | absorbance | CCM | MIC | 125 µg/mL |
| O=c1c(-c2ccc(C(F)(F)F)cc2)c(/C=C/c2cn(-c3ccccc3)nc2-c2ccc(Br)cc2)nc2sccn12 | colony count | mc2155 | MIC | 69 µg/mL |
| Cc1c(NCCN)c(F)cn2c(=O)c(C(=O)O)cc(C3CC3)c12.Cl |  | ATCC114 | MIC | 25 µg/mL |
| CC1CN(C(=O)CCCCCCCCCCCCCCCCCNCC(=O)N2CC(C)OP(=O)(O)OC(C)C2)CC(C)OP(=O)(O)O1 |  |  | MIC | 15.6 µM |
| Cc1c(CN2CCN(C)CC2)c(CN2CCN(C)CC2)c(-c2ccc(Cl)cc2)n1C1CCCCC1 |  | 103599 | MIC | >64 µg/mL |
| CC[C@H](CO)NCCCN[C@@H](CC)CO.Cl.Cl.O |  | ATCC 607 | MIC | 250 µg/mL |
| CC(=O)O[C@@]12CO[C@@H]1C[C@H](O)[C@@]1(C)C(=O)[C@H](O)C3=C(C)C(OC(=O)/C=C/c4ccc5ccccc5c4)C[C@@](O)([C@@H](OC(=O)c4ccccc4)[C@H]21)C3(C)C | agar / colony count / visual reading |  | EC50 | 18 µM |
| O=C1c2ccccc2C(=O)c2cc(C[P+](c3ccccc3)(c3ccccc3)c3ccccc3)ccc21 |  |  | MIC | 2.5 µg/mL |
| Cc1c(CN2CCN(C)CC2)cc(-c2ccc(Cl)cc2)n1-c1ccc(Cl)cc1 |  | 103599 | MIC | 25 µg/mL |
| Cc1c(N2CCCC(N)C2)c(F)cn2c(=O)c(C(=O)O)cc(C3CC3)c12 |  | ATCC114 | MIC | 0.2 µg/mL |
| Cc1cc(CN2CCN(C)CC2)c(C)n1C1CCCCC1 |  | 103599 | MIC | >64 µg/mL |
| COc1ccc(-n2cc(/C=C/c3nc4sccn4c(=O)c3-c3ccc(C#N)cc3)c(-c3ccccc3)n2)cc1 | colony count | mc2155 | MIC | 620 µg/mL |
| CCCCN(CCCC)CCc1c[nH]c2ccccc12 |  | ATCC 700084 | MIC | 9.76 µg/mL |
| Cc1cccc(-c2nn(-c3ccccc3)cc2/C=C/c2nc3sccn3c(=O)c2-c2ccc(C(F)(F)F)cc2)c1 | colony count | mc2155 | MIC | 56 µg/mL |
| C[C@@H]1[C@H](O)[C@@H](C)/C=C/C=C/C=C/C=C/C=C/C=C/C=C/[C@H](O[C@@H]2O[C@H](C)[C@@H](O)[C@H](N)[C@@H]2O)C[C@@H]2O[C@](O)(C[C@@H](O)C[C@@H](O)[C@H](O)CC[C@@H](O)C[C@@H](O)CC(=O)O[C@H]1C)C[C@H](O)[C@H]2C(=O)O |  |  | MIC | 0.41 µM |
| Cc1c(N2CCc3ccccc3C2)c(F)cn2c(=O)c(C(=O)O)cc(C3CC3)c12 |  | ATCC114 | MIC | 50 µg/mL |
| NCCCCNCCCN | visual reading | mc2155 | MIC | >500 µg/mL |
| Cc1c(N2CCNCC2)c(F)cn2c(=O)c(C(=O)O)cc(C3CC3)c12 |  | ATCC114 | MIC | 0.2 µg/mL |
| O=C(O)c1cn(C2CC2)c2cc(N3CCNCC3)c(F)cc2c1=O |  | ATCC 14468 | MIC | 0.08 µg/mL |
| Cc1ccc(-c2nn(-c3ccccc3)cc2/C=C/c2nc3sccn3c(=O)c2-c2ccc(C(F)(F)F)cc2)cc1 | colony count | mc2155 | MIC | 87 µg/mL |
| CC[C@H](COC(C)=O)N(CCN(C(C)=O)[C@@H](CC)COC(C)=O)C(C)=O |  | ATCC 607 | MIC | >250 µg/mL |
| Cc1c(CN2CCN(C)CC2)cc(-c2ccc(Cl)cc2)n1C1CCCCC1 |  | 103599 | MIC | 4 µg/mL |
| OC1CCCCC1NCCNC1CCCCC1O |  | ATCC 607 | MIC | 250 µg/mL |
| CC1(C)C=Cc2c(ccc(C(=O)/C=C/c3ccc(O)cc3)c2O)O1 |  | ATCC 700084 | MIC | 9.76 µg/mL |
| COc1ccc(-c2nn(-c3ccccc3)cc2/C=C/c2nc3sccn3c(=O)c2-c2ccc(C(F)(F)F)cc2)cc1 | colony count | mc2155 | MIC | 62 µg/mL |
| NC(N)=N[C@H](C(=O)O)c1ccccc1 | visual reading | mc2155 | MIC | >500 µg/mL |
| Cc1ccc(-c2ccc(Cl)cc2)n1C1CCCCC1 |  | 103599 | MIC | >16 µg/mL |
| CC(C)(C)c1cnc(C(=O)/C=C/c2ccc(Br)cc2)cn1 | absorbance | CCM | MIC | >250 µg/mL |

3 of the rows above, restated:

structure	method	strain or isolate	measure	result
Cc1c(CN2CCN(C)CC2)cc(-c2ccc(Cl)cc2)n1-c1ccc(Cl)cc1		103599	MIC	25 µg/mL
N#Cc1ccc(-c2c(/C=C/c3cn(-c4ccccc4)nc3-c3ccccc3Br)nc3sccn3c2=O)cc1	colony count	mc2155	MIC	55 µg/mL
N#CC(C#N)=NNc1cccc(Cl)c1		MC^2 552 (ciprofloxacin-resistant)	MIC	30 µg/mL